The source of these data is ChEMBL document CHEMBL4373711, “Development of 3,5-Dinitrophenyl-Containing 1,2,4-Triazoles and Their Trifluoromethyl Analogues as Highly Efficient Antitubercular Agents Inhibiting Decaprenylphosphoryl-β-d-ribofuranose 2'-Oxidase” (J Med Chem, 2019).

Test [1] deals with Mycobacterium tuberculosis. Conditions: Praha 4.
Test [2] has as its system Mycobacterium tuberculosis. Conditions: 234/2005.

For GENTAMICIN, the figures for the MIC>99 in test [1] and in test [2] were 0.5 µM and 0.25 µM, respectively.
